Patent USRE37781E1, “Substituted cyclic carbonyls and derivatives thereof useful as retroviral protease inhibitors” (DuPont Pharmaceuticals Company, priority 1991, dated 2002)
Where two headings read alike, the source gives them in different places.

Key:
[1] = biological target: HIV protease (Human immunodeficiency virus type 1 group M subtype B, UniProt P04585)
[2] = tested on: HIV-1 (RF) in MT-2 cells
[3] = biological target: single-chain tethered dimer of HIV protease (Human immunodeficiency virus 1, UniProt P04585)

| Compound | Ki ([1]; Table 1e) [nM] | IC90 ([2]; Table 1e) | also measured |
| --- | --- | --- | --- |
| O=C1NC(CCc2ccccc2)[C@@H](O)[C@@H](Cc2ccccc2)N1Cc1cccc(O)c1 (stereo partly shown) | < 10 | +++ (+++=<10 μg/mL) | – |
| NC(=O)c1cccc(CN2C(=O)N(Cc3cccc(C(N)=O)c3)[C@H](Cc3ccc(F)cc3)[C@H](O)[C@H]2CCc2ccc(F)cc2)c1 | < 10 | +++ (+++=<10 μg/mL) | – |
| COCCOCCOCCN1C(=O)N(CCOCCOCCOC)[C@@H](Cc2ccccc2)[C@@H](O)[C@H](O)[C@@H]1Cc1ccccc1 | – | – | Ki ([1]; Table 1a): > 1000 nM |
| CNc1cccc(CN2C(=O)N(Cc3cccc(NC)c3)[C@H](C(Br)Cc3ccccc3)[C@@H](O)[C@H]2Cc2ccccc2)c1 (stereo partly shown) | 10 to 1000 | +++ (+++=<10 μg/mL) | – |
| CNc1cccc(CN2C(=O)N(Cc3cccc(NC)c3)[C@H](Cc3ccccc3)[C@H](O)[C@H]2CCc2ccccc2)c1 | < 10 | +++ (+++=<10 μg/mL) | – |
| NC(=NO)c1cc(CN2C(=O)N(Cc3ccc(F)c(C(N)=NO)c3)[C@H](Cc3ccccc3)[C@H](O)[C@H]2CCc2ccccc2)ccc1F | < 10 | +++ (+++=<10 μg/mL) | – |
| NC(=O)c1cc(CN2C(=O)N(Cc3ccc(F)c(C(N)=O)c3)[C@H](Cc3ccccc3)[C@H](O)[C@H]2CCc2ccccc2)ccc1F | < 10 | +++ (+++=<10 μg/mL) | – |
| NC(=O)c1cccc(CN2C(=O)N(Cc3cccc(C(N)=O)c3)[C@H](Cc3ccc(F)c(F)c3)[C@H](O)[C@H]2CCc2ccc(F)c(F)c2)c1 | < 10 | +++ (+++=<10 μg/mL) | – |
| NC(=O)c1cccc(CN2C(=O)N(Cc3cccc(C(N)=O)c3)[C@H](Cc3ccccc3)[C@H](O)[C@H]2CCc2ccccc2)c1 | < 10 | +++ (+++=<10 μg/mL) | – |
| N#Cc1cccc(CN2C(=O)N(Cc3cccc(C#N)c3)[C@H](Cc3ccc(F)cc3)[C@H](O)[C@H]2CCc2ccc(F)cc2)c1 | – | +++ (+++=<10 μg/mL) | Ki [1]: 10 to 1000 nM |
| NC(=NO)c1cccc(CN2C(=O)N(Cc3cccc(C(N)=NO)c3)[C@H](Cc3ccc(F)cc3)[C@H](O)[C@H]2CCc2ccc(F)cc2)c1 | < 10 | +++ (+++=<10 μg/mL) | – |
| COCCOCO[C@@H]1C(C(F)Cc2ccccc2)N(CC2CC2)C(=O)N(CC2CC2)[C@@H]1Cc1ccccc1 (stereo partly shown) | > 1000 | ++ (++=10 to 100 μg/mL) | – |
| NC(=NO)c1cccc(CN2C(=O)N(Cc3cccc(C(N)=NO)c3)[C@H](Cc3ccc(F)c(F)c3)[C@H](O)[C@H]2CCc2ccc(F)c(F)c2)c1 | < 10 | +++ (+++=<10 μg/mL) | – |
| CS(=O)(=O)c1cccc(CN2C(=O)N(Cc3cccc(S(C)(=O)=O)c3)[C@H](Cc3ccccc3)[C@H](O)[C@@H](O)[C@H]2Cc2ccccc2)c1 | – | – | IC90 ([2]; Table 2d, class symbols): +++ (+++=<10 μg/mL); Ki ([3]; read-out: HPLC K1, Table 2d, class symbols): < 10 nM |
| N=C(N)c1cccc(CN2C(=O)N(Cc3cccc(C(N)=O)c3)[C@H](Cc3ccccc3)[C@H](O)[C@@H](O)[C@H]2Cc2ccccc2)c1 | – | – | IC90 ([2]; Table 2d, class symbols, tested form: acetate): +++ (+++=<10 μg/mL); Ki ([3]; read-out: HPLC K1, Table 2d, class symbols, tested form: acetate): < 10 nM |
| COC(=O)c1cccc(CN2C(=O)N(Cc3cccc(C(=O)OC)c3)[C@H](Cc3ccccc3)[C@H](O)C[C@H]2Cc2ccccc2)c1 | – | – | Mass Spec M + H (class symbols printed in this column) ([2]; Table 1d, lower part): +++ (+++=<10 μg/mL); Ki ([3]; read-out: HPLC Ki, Table 1d, lower part): 10 to 1000 nM |
